In this experiment the target is A/Brevig Mission/1/1918 H1N1 NA, thrombin-digested (for crystals) (influenza A virus A/Brevig Mission/1/1918 (H1N1)). The experiment is described as follows: crystal structure.

A word on the stoichiometry N: it is the number of molecules, sites or subunits per partner or assembly. In turn, “A/Brevig Mission/1/1918 H1N1 NA, thrombin-digested (for crystals) (domain or fragment)” came in with a stoichiometry N of 4.

The values are drawn from article PMC7542365 (mBio, 2020).
